{"source": "paper PMC9618136", "key": {"[1]": {"molecular_target": "OsExo70F3, N-terminally truncated, purified (rice)", "test": "ITC", "details": "domain or fragment"}, "[2]": {"molecular_target": "OsExo70F3, N-terminally truncated, purified (rice)", "test": "ITC", "details": "domain or fragment", "remark": "listed apart in the source"}}}
{"substance": "AVR-Pii effector domain (residues 20 to 70), purified", "values": [{"measurement": "Kd", "setting": "[1]", "value": 2.79, "unit": "nM"}, {"measurement": "Kd", "setting": "[2]", "value": 4.19, "unit": "nM"}]}
